Patent US20260234738A1

B1: mAb10955 (antibody)
heavy: EVQLVESGGGLVQPGGSLRVSCAASGFTVSRNYMSWVRQAPGKGLEWVSVIYSGGSTFYADSVKGRFTISRDNSKNTLYLQMNSLRAEDTAIYYCARYIPRFDPWGQGTLVTVSSASTKGPSVFPLAPSSKSTSGGTAALGCLVKDYFPEPVTVSWNSGALTSGVHTFPAVLQSSGLYSLSSVVTVPSSSLGTQTYICNVNHKPSNTKVDKKV[human IgG1 Fc left out]
light: DIQMTQSPSSLSASVGDRVTITCQASQDISNYLNWFQQKPGRAPKLLIYDASNLETGVPSRFSGSGSGTDFTFTISSLQPEDIATYYCQQYDNLPITFGQGTRLEIKRTVAAPSVFIFPPSDEQLKSGTASVVCLLNNFYPREAKVQWKVDNALQSGNSQESVTEQDSKDSTYSLSSTLTLSKADYEKHKVYACEVTHQGLSSPVTKSFNRGEC
B2: mAb10921 (antibody)
heavy: EVQLVESGGGLVQPGGSLRLSCAASGITVSSNYMSWVRQAPGKGLEWVSVIYSGGSTFYADSVKGRFTISRHNSKNTLYLQMNSLRAEDTAVYYCARERNFDAFDIWGQGTMVTVSSASTKGPSVFPLAPSSKSTSGGTAALGCLVKDYFPEPVTVSWNSGALTSGVHTFPAVLQSSGLYSLSSVVTVPSSSLGTQTYICNVNHKPSNTKVDKKV[human IgG1 Fc left out]
light: DIQMTQSPSSVSASVGDRVTITCRASQGISSWLAWYQQKPGKAPKLLIYAASSLQSGVPSRFSGSGSGTDFTLTISSLQPEDFATYYCQQANSFPLFTFGPGTKVDIKRTVAAPSVFIFPPSDEQLKSGTASVVCLLNNFYPREAKVQWKVDNALQSGNSQESVTEQDSKDSTYSLSSTLTLSKADYEKHKVYACEVTHQGLSSPVTKSFNRGEC
B3: mAb10920 (antibody)
heavy: QVQLVESGGGVVQPGRSLRLSCAASGFTFSYYGMHWVRQAPGKGLEWVAVIWYDGSNKFYADSVKGRFTISRDNSKNTLYLQMNSLRAEDTAVYYCAAARPGYYYGMDVWGQGTTVTVSSASTKGPSVFPLAPSSKSTSGGTAALGCLVKDYFPEPVTVSWNSGALTSGVHTFPAVLQSSGLYSLSSVVTVPSSSLGTQTYICNVNHKPSNTKVDKKV[human IgG1 Fc left out]
light: DIQMTQSPSSLSASVGDRVTITCRASQGISNYLAWFQQKPGKAPNSLIYAASSLQRGVPSKFSGSGSGTDFTLTISSLQPEDFATYYCQQYNSYPRTFGQGTKVEIKRTVAAPSVFIFPPSDEQLKSGTASVVCLLNNFYPREAKVQWKVDNALQSGNSQESVTEQDSKDSTYSLSSTLTLSKADYEKHKVYACEVTHQGLSSPVTKSFNRGEC
B4: mAb10915 (antibody)
heavy: EVQLVESGGGLVQPGGSLRLSCAASGFTVSSNYMNWVRQAPGKGLEWVSVIYSGGSTFYADSVKGRFTISRHNSKNTLYLQMNSLRPEDTAVYYCARDLGGYFDYWGQGTLVTVSSASTKGPSVFPLAPSSKSTSGGTAALGCLVKDYFPEPVTVSWNSGALTSGVHTFPAVLQSSGLYSLSSVVTVPSSSLGTQTYICNVNHKPSNTKVDKKV[human IgG1 Fc left out]
light: [about 100 residues left out][about 120 residues left out]
B5: mAb11010 (antibody)
heavy: QVQLVESGGGVVQPGRSLRLSCAASGFTFSSYGMHWVRQAPGKGLEWVAVISYDGSYKYYADSVKGRFTISRDNSKNTLYLQMNSLRAEDTAVYYCAIDGGTVTTIFDYWGQGTLVTVSSASTKGPSVFPLAPSSKSTSGGTAALGCLVKDYFPEPVTVSWNSGALTSGVHTFPAVLQSSGLYSLSSVVTVPSSSLGTQTYICNVNHKPSNTKVDKKV[human IgG1 Fc left out]
light: [about 100 residues left out][about 120 residues left out]
B6: mAb10965 (antibody)
heavy: EVQLVESGGGLIQPGGSLRLSCAASVFTVSYNYMSWVRQAPGKGLEWVSVIYSGGSTYYADSVKGRFTISRDNSKNTLYLQMNSLRAEDTAVYYCARALPGWGGSFEYFDYWGQGTLVTVSSASTKGPSVFPLAPSSKSTSGGTAALGCLVKDYFPEPVTVSWNSGALTSGVHTFPAVLQSSGLYSLSSVVTVPSSSLGTQTYICNVNHKPSNTKVDKKV[human IgG1 Fc left out]
light: [about 100 residues left out][about 100 residues left out]

The binders below were run against SARS-COV-2 RBD-MMH (SARS-CoV-2) (assay: SPR). Settings: remark: other sources report otherwise.

Q: What does the source list for B1?
A: Kd: 19.5 nM; t½: 4.3 min

Q: Which results are given for B2?
A: Kd: 5.24 nM; t½: 23.1 min

Q: For B3, which Kd is on record?
A: 35.4 nM

Q: What about the t½ of the same binder?
A: 0.5 min

Q: For B4, which Kd is on record?
A: 3.59 nM

Q: And the t½?
A: 36.3 min

Q: How did the Kd turn out when B5 was run?
A: 4.42 nM

Q: What about the t½ of the same binder?
A: 7.8 min

Q: How did the Kd turn out when B6 was run?
A: 22.8 nM

Q: And the t½?
A: 4.2 min
